According to ChEMBL document CHEMBL5303709, “ECBD screening data for assay EOS300041” (2022):

Biological target: Replicase polyprotein 1ab (Severe acute respiratory syndrome coronavirus 2) (UniProt P0DTD1)
Experiment: Inhibition of SARS-CoV-2 3CL-Pro proteolytic cleavage of a dual-labeled substrate by FRET.
Type: functional
Design: assay stage

Question: Which IC50 relative does the source give for `O=C1C(Cl)=C(N2CCOCC2)C(=O)N1c1ccc(Cl)c(Cl)c1` here?
Answer: Its IC50 relative is 4.53 µM.
